Anti-infective test results gathered from many reports (values: NIAID ChemDB through PubChem).

Shared fields: toxicity to cultured cells; cells: MT-4; read-out: CC50

An empty or dashed field is not shown.

| structure | read by | result |
|---|---|---|
| c1cc(CN2CCCNCCNCCCNCC2)ccc1CN1CCCNCCNCCCNCC1 | MTT | >1 µg/mL |
| Fc1cccc(F)c1[C@@H]1SCc2nc3ccccc3n21 | - | 86.7 µM |
| N#Cc1ccc(Nc2nccc([C@@H](O)c3ccccc3Cl)n2)cc1 | MTT | 36 µM |
| O=c1[nH]cnc2c1ncn2[C@H]1CC[C@@H](CO)O1 | - | >100 µM |
| c1ccc2c(CN3CCCNCCNCCCNCC3)cc(CN3CCCNCCNCCCNCC3)cc2c1 | - | >250 µg/mL |
| CC(C)c1c(Sc2cccc3ccccc23)n(COCc2cccc(F)c2)c(=O)[nH]c1=O | MTT | 32.82 µM |
| C[C@H]1[C@@H]2O[C@]3(NC(=O)OC(C)(C)C)[C@@H](C)[C@H]1O[C@H]2[C@@H]3I | MTT | >63 µM |
| CC(C)c1c(Sc2cccc3ccccc23)n(COCc2ccc(F)cc2)c(=O)[nH]c1=O | MTT | 30.23 µM |
| COc1nc(Cc2cccc(C)c2)cc(=O)[nH]1 | - | >434 µM |
| Cc1cn([C@H]2C[C@H](N=[N+]=[N-])[C@@H](COC(=O)CCC(=O)OC[C@H]3O[C@@H]4O[C@H]5[C@H](O)[C@@H](O)[C@@H](O[C@H]6[C@H](O)[C@@H](O)[C@@H](O[C@H]7[C@H](O)[C@@H](O)[C@@H](O[C@H]8[C@H](O)[C@@H](O)[C@@H](O[C@H]9[C@H](O)[C@@H](O)[C@@H](O[C@H]3[C@H](O)[C@H]4O)O[C@@H]9CO)O[C@@H]8CO)O[C@@H]7CO)O[C@@H]6CO)O[C@@H]5CO)O2)c(=O)[nH]c1=O | MTT | 5.66 µg/mL |
| Cc1cn([C@H]2C[C@H](N=[N+]=[N-])[C@@H](CO)O2)c(=O)[nH]c1=O | - | 4.97 µM |
| CC(C)(C)OC(=O)N1CCCN(C(=O)OC(C)(C)C)CCN(C(=O)OC(C)(C)C)CCCN(CCCCC(=O)Nc2ccn([C@H]3CC[C@@H](CO)O3)c(=O)n2)CC1 | - | 1 µM |
| CN(C)C(=O)N1CCN(C(=O)N2CCCC2)CC1 | MTT | >125 µg/mL |
| Cc1cccc(Cc2nc(OC3CCCCC3)[nH]c(=O)c2C)c1 | - | >330 µM |
| Cc1c(Sc2ccccc2)n(COCCO)c(=O)[nH]c1=O | MTT | 405 µM |
| CC(=O)ON1COC[C@H]2O[C@@H](n3cc(C)c(=O)[nH]c3=O)C[C@@H]21 | - | 207 µg/mL |
| CC(C)(C)OC(=O)N1CCCN(C(=O)OC(C)(C)C)CCN(C(=O)OC(C)(C)C)CCCN(CCCCC(=O)Nc2ccn([C@H]3CC[C@@H](COC(=O)CCCCN4CCCN(C(=O)OC(C)(C)C)CCN(C(=O)OC(C)(C)C)CCCN(C(=O)OC(C)(C)C)CC4)O3)c(=O)n2)CC1 | - | 10 µM |
| COC(=O)[C@@H](C)NC(=O)c1c(C)cc2c(c1O)-c1c(cc3c(c1O)C(=O)c1cc(OC)cc(O)c1C3=O)[C@H](O)[C@H]2O[C@@H]1O[C@H](CO)[C@H](N)[C@H](O)[C@H]1O | - | >101 µg/mL |
| c1cc(CN2CCCNCCNCCCNCC2)ccc1CN1CCCNCCNCCCNCC1 | MTT | >9.94 µM |
| CCO/N=C(/c1ccco1)c1c(CC)nc2sccn12 | MTT | 160 µM |
| COC(=O)c1cc(CN2CCCNCCNCCCNCC2)ccc1CN1CCCNCCNCCCNCC1 | - | >250 µg/mL |
| CCOCn1c(Sc2ccc3ccccc3c2N)c(CC)c(=O)[nH]c1=O | MTT | 195 µM |
| CCc1nc2ncccn2c1C(=O)c1ccco1 | MTT | >100 µM |
| O=c1[nH]c(=O)n([C@H]2C[C@H](F)[C@@H](CO)O2)cc1Br | - | 95 µM |
| CCc1c(Sc2ccc3ccccc3c2NC(C)=O)n(COCc2ccccc2)c(=O)[nH]c1=O | MTT | 155 µM |
| N#Cc1ccc(Nc2nccc(C(O)c3ccccc3Cl)n2)cc1 | MTT | 29 µM |
| CC(C)(C)OC(=O)N1CCCN(C(=O)OC(C)(C)C)CCN(C(=O)OC(C)(C)C)CCCN(CCCCC(=O)OC[C@H]2O[C@@H](n3ccc(N)nc3=O)CS2)CC1 | - | 50 µM |
| CCc1nc2sccn2c1C(=O)c1ccco1 | - | 358 µM |
| Clc1cc(CN2CCCNCCNCCCNCC2)c(Cl)cc1CN1CCCNCCNCCCNCC1 | - | >250 µg/mL |
| CC(=O)Nc1ccc(N2C(=O)c3ccc(Cl)cc3C2=O)c(C)c1 | MTT / absorbance | 0.334 µM |
| COc1ccc(CSc2nc(Cc3cccc4ccccc34)c(C(C)C)c(=O)[nH]2)cc1 | - | >37.39 µM |
| CCc1nc2ccccn2c1C(=O)c1ccco1 | MTT | 280 µM |
| Cc1cn([C@H]2C[C@H](N=[N+]=[N-])[C@@H](COC(=O)CCCCN3CCCN(C(=O)OC(C)(C)C)CCN(C(=O)OC(C)(C)C)CCCN(C(=O)OC(C)(C)C)CC3)O2)c(=O)[nH]c1=O | - | 50 µM |
| COc1cc(O)c2c(c1)C(=O)c1c(cc3c(c1O)-c1c(cc(C)c(C(=O)N[C@H](C)C(=O)O)c1O)[C@H](O[C@@H]1O[C@H](C)[C@H](N)[C@H](O[C@@H]4OC[C@@H](O)[C@H](O)[C@@H]4O)[C@H]1O)[C@H]3O)C2=O | - | >100 µg/mL |
| C[C@H]1[C@H](O)[C@H](C)[C@@]2(NC(=O)OC(C)(C)C)O[C@@H]1[C@@H]1O[C@@H]12 | MTT | >440 µM |
| Cc1cc(N=Cc2ccccc2)ccc1N1C(=O)c2ccc(Cl)cc2C1=O | MTT / absorbance | 0.317 µM |
| Cc1cccc(COCn2c(Sc3cccc4ccccc34)c(C(C)C)c(=O)[nH]c2=O)c1 | MTT | 29.6 µM |
| COc1ccc(CSc2nc(Cc3ccccc3Br)c(C)c(=O)[nH]2)cc1 | - | >179 µM |
| Cc1cc(C)cc(Cc2nc(OC3CCCCC3)[nH]c(=O)c2C)c1 | - | >307 µM |
| Cc1cn([C@H]2C[C@H](N=[N+]=[N-])[C@@H](COC(=O)CCC(=O)OCC3OC4OC5C(COS(=O)(=O)O)OC(OC6C(COS(=O)(=O)O)OC(OC7C(COS(=O)(=O)O)OC(OC8C(COS(=O)(=O)O)OC(OC9C(COS(=O)(=O)O)OC(OC3C(OS(=O)(=O)O)C4OS(=O)(=O)O)C(OS(=O)(=O)O)C9OS(=O)(=O)O)C(OS(=O)(=O)O)C8OS(=O)(=O)O)C(OS(=O)(=O)O)C7OS(=O)(=O)O)C(OS(=O)(=O)O)C6OS(=O)(=O)O)C(OS(=O)(=O)O)C5OS(=O)(=O)O)O2)c(=O)[nH]c1=O | MTT | >100 µg/mL |
| CCOCn1c(Cc2ccccc2)c(C(C)C)c(=O)[nH]c1=O | - | 105 µM |
| CCc1c(Sc2cccc3ccccc23)n(COCc2ccccc2)c(=O)[nH]c1=O | MTT | 34.28 µM |
| CN(C)C(=O)N1CCN(C(=O)N2CCCCC2)CC1 | MTT | >125 µg/mL |
| Cc1cn([C@H]2C[C@H](N=[N+]=[N-])[C@@H](CO)O2)c(=O)nc1NN(C)C | - | 68.3 µM |
| CCc1c(Cc2cccc3ccccc23)nc(SCc2ccc(OC)cc2)[nH]c1=O | - | >227 µM |
| C[C@H]1[C@@H]2O[C@]3(NC(=O)OC(C)(C)C)[C@@H](C)[C@H]1O[C@H]2[C@@H]3Br | MTT | >72 µM |
| Cc1cc(NC(=O)c2ccc(Cl)cc2)ccc1N1C(=O)c2ccc(Cl)cc2C1=O | MTT / absorbance | 0.256 µM |
| Cc1cn([C@H]2C[C@H](F)[C@@H](CO)O2)c(=O)[nH]c1=O | - | 0.1 µM |
| Cc1ccnc2c1NC(=O)c1cccnc1N2C1CC1 | - | 155 µM |
| C1CNCCNCCNCCN1 | - | 20 µM |
| CC(C)(C)OC(=O)N1CCCN(C(=O)OC(C)(C)C)CCN(C(=O)OC(C)(C)C)CCCN(CCCCC(=O)Nc2ccn([C@H]3CS[C@@H](CO)O3)c(=O)n2)CC1 | - | 10 µM |
| Cc1cc(N=Cc2ccc(O)cc2)ccc1N1C(=O)c2ccc(Cl)cc2C1=O | MTT / absorbance | 0.534 µM |
| NCCCCCCNC(=O)/C=C/c1cn([C@H]2C=C[C@@H](CO)O2)c(=O)[nH]c1=O | - | >100 µM |
| Cc1cn([C@H]2C[C@H](N(C)O)[C@@H](CO)O2)c(=O)[nH]c1=O | - | 181 µg/mL |
| C[C@@H]1[C@@H]2O[C@]3(NC(=O)OC(C)(C)C)[C@@H](C)[C@H]1O[C@H]2[C@@H]3Br | MTT | >72 µM |
| Cc1ccc(C(=O)Nc2ccc(N3C(=O)c4ccc(Cl)cc4C3=O)c(C)c2)cc1 | MTT / absorbance | 0.616 µM |
| CCOCn1c(Sc2cccc3ccccc23)c(CC(C)C)c(=O)[nH]c1=O | MTT | 36.12 µM |
| COC(=O)CCCCCNC(=O)/C=C/c1cn([C@H]2C=C[C@@H](CO)O2)c(=O)[nH]c1=O | - | >100 µM |
| CCN(CC)C(=O)N1CCN(C(=O)N(C)CCN2CCCCC2)CC1 | MTT | >125 µg/mL |
| Cc1cc(C)cc(Cc2cc(=O)[nH]c(OC3CCCCC3)n2)c1 | - | >320 µM |
| Fc1cccc(F)c1C1SCc2nc3ccccc3n21 | - | 48.6 µM |
| c1ccc(-c2cc(CN3CCCNCCNCCCNCC3)ccc2CN2CCCNCCNCCCNCC2)cc1 | - | >250 µg/mL |
| Nc1ccn([C@H]2CC[C@@H](CO)O2)c(=O)n1 | - | 219 µM |

A second listing of 9 rows from above:

structure,read by,result
Cc1cccc(Cc2nc(OC3CCCCC3)[nH]c(=O)c2C)c1,-,>330 µM
C[C@H]1[C@H](O)[C@H](C)[C@@]2(NC(=O)OC(C)(C)C)O[C@@H]1[C@@H]1O[C@@H]12,MTT,>440 µM
Cc1cn([C@H]2C[C@H](N=[N+]=[N-])[C@@H](COC(=O)CCC(=O)OCC3OC4OC5C(COS(=O)(=O)O)OC(OC6C(COS(=O)(=O)O)OC(OC7C(COS(=O)(=O)O)OC(OC8C(COS(=O)(=O)O)OC(OC9C(COS(=O)(=O)O)OC(OC3C(OS(=O)(=O)O)C4OS(=O)(=O)O)C(OS(=O)(=O)O)C9OS(=O)(=O)O)C(OS(=O)(=O)O)C8OS(=O)(=O)O)C(OS(=O)(=O)O)C7OS(=O)(=O)O)C(OS(=O)(=O)O)C6OS(=O)(=O)O)C(OS(=O)(=O)O)C5OS(=O)(=O)O)O2)c(=O)[nH]c1=O,MTT,>100 µg/mL
CC(C)c1c(Sc2cccc3ccccc23)n(COCc2cccc(F)c2)c(=O)[nH]c1=O,MTT,32.82 µM
CCc1nc2sccn2c1C(=O)c1ccco1,-,358 µM
N#Cc1ccc(Nc2nccc(C(O)c3ccccc3Cl)n2)cc1,MTT,29 µM
Cc1cc(N=Cc2ccccc2)ccc1N1C(=O)c2ccc(Cl)cc2C1=O,MTT / absorbance,0.317 µM
O=c1[nH]c(=O)n([C@H]2C[C@H](F)[C@@H](CO)O2)cc1Br,-,95 µM
C[C@H]1[C@@H]2O[C@]3(NC(=O)OC(C)(C)C)[C@@H](C)[C@H]1O[C@H]2[C@@H]3I,MTT,>63 µM

CCn: concentration that lowers growth or viability of the cells by n%. Neighbouring rows are from separate reports.